According to US20070082942A1, “Prevention of hiv-1 infection by inhibition of rho-mediated reorganization and/or content alteration of cell membrane raft” (priority 2003, published 2007):

System: PHA-activated human PBMC

How did the Cytotoxic effects turn out when `CC[C@H](C)C(=O)O[C@H]1C[C@@H](C)C=C2C=C[C@H](C)[C@H](CC[C@@H]3C[C@@H](O)CC(=O)O3)[C@H]21` [lovastatin] was run?
Its Cytotoxic effects is “no cytotoxic effects”.
